Reference: article PMC9239237, “Salmonella Facilitates Iron Acquisition through UMPylation of Ferric Uptake Regulator” (mBio, 2022)

Target: T1, UMPylated Fur (Escherichia coli K-12 substrain MG1655) (UniProt P0A9A9)
T1 sequence (looked up, limits assumed): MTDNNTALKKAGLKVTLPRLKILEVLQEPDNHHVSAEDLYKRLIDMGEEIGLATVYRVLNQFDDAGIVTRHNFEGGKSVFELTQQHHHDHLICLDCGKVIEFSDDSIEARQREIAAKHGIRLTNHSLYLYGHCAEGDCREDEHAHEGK
Assay: EMSA
Conditions: no shift even at protein:DNA ratio above 4 (legend: up to 40 nmol protein to 10 nmol DNA), DNA annealed in 10 mM Tris-HCl pH 7.5, 150 mM NaCl, binding buffer not stated, 20 nM DNA, 37 C 10 min (Methods) vs 10 nmol DNA, 30 C 10 min (Fig. 4 legend), recombinant protein, protein details: His tag removed with PPase (pGL01)

GATAATGATAATGATAATGATAATGATAATGA (double strand) [Fur box DNA]
binding result: no binding

Construct, isoform or probe ends are uncertain for at least one entry. No signal at the amounts used counts as a negative. Tags and fusion partners may be left off the protein sequences shown.
